According to publication PMC10241523 (The Journal of Venomous Animals and Toxins Including …, 2023):
Only a part of the results on these compounds is given; other tests are left out.

System: human NaV1.4 (hNaV1.4)
Test: Whole-cell patch clamp, hNaV1.4 in HEK293 cells
Conditions: 10 μM, -10 mV from holding -120 mV, positive control 1 μM TTX

SMILES: CC[C@H](C)[C@H](NC(=O)[C@@H]1CSSC[C@@H]2NC(=O)[C@H](Cc3ccc(O)cc3)NC(=O)[C@H]([C@@H](C)CC)NC(=O)[C@H](C(C)C)NC(=O)CNC(=O)[C@H](CC(C)C)NC(=O)[C@H](CC(C)C)NC(=O)[C@H](CO)NC(=O)[C@H](C)NC(=O)[C@@H]3CCCN3C(=O)[C@@H]3CSSC[C@H](NC(=O)[C@H]([C@@H](C)CC)NC(=O)[C@H](CC(C)C)NC(=O)CNC(=O)[C@H](CCC(=O)O)NC(=O)[C@H](CSSC[C@H](NC(=O)[C@@H](N)CC(=O)O)C(=O)N[C@@H](Cc4c[nH]cn4)C(=O)N[C@@H](CCC(=O)O)C(=O)N[C@@H](CCCNC(=N)N)C(=O)N[C@@H](Cc4c[nH]c5ccccc45)C(=O)N[C@@H](CC(=O)O)C(=O)N[C@@H](Cc4c[nH]c5ccccc45)C(=O)N3)NC2=O)C(=O)N[C@@H](Cc2ccccc2)C(=O)N[C@@H]([C@@H](C)CC)C(=O)N[C@@H](C)C(=O)N[C@@H](Cc2ccccc2)C(=O)N1)C(=O)O [Tx6.7]
- effects on hNaV1.4 currents: no obvious effects
